Cell count, SARS-CoV-2 infection rate and morphology score data for one compound are collected here from the supplement of paper PMC13380429.

Holding throughout (settings): 24 h
Test [1] concerns A549-ACE2 infected with SARS-CoV-2. Briefly: cell count relative to DMSO; higher = less toxic.
For test [2] the test system is unchanged. As to the kind of experiment: SARS-CoV-2 infection rate relative to DMSO; higher = more infection.
For test [3] the test system is unchanged. As to the kind of experiment: morphology score (similarity to uninfected cells); higher = more like uninfected cells.

With `N=C(N)NCCC[C@H](N)C(=O)NCC(=O)N[C@@H](CC(=O)O)C(=O)N[C@@H](CO)C(=O)O` [DU-728], the cell count in test [1] (0.3 µM) worked out at 99%; in test [1] (3 µM) it was 99%; in test [1] (10 µM), 97%; in test [1] (30 µM) it was 101%. Also, the SARS-CoV-2 infection rate in test [2] (0.3 µM) was 100%; in test [2] (3 µM) it was 101%; in test [2] (10 µM) it was 102%; in test [2] (30 µM), 99%. Moreover, the morphology score is 0.14 in test [3] (0.3 µM), -0.11 in test [3] (3 µM), -0.04 in test [3] (10 µM) and 0.1 in test [3] (30 µM).
